Taken from: PubChem BioAssay AID624099 (ICCB-Longwood, 2012)
Assay: 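Knock-downs relieving repression by E2 of an HPV18 LCR luciferase reporter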 (primary screen). Cell system: human C33A cervical carcinoma cells (HPV-negative) stably expressing BPV1 E2 and an HPV18 LCR luciferase reporter. Reagent: siRNA pool against human genes, 40 nM. Duration: 72 h. Measurement: 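HPV18 LCR reporter light per well, converted to plate-wise z-scores that exclude control wells, and averaged over triplicate plates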. Direction: mean z-score and z-score: higher = stronger reporter signal, weaker E2 silencing. Active means: 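Mean z ≥ 2 together with z ≥ 2 in two or more of the three replicates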.
The deposit covers about 21,000 reagents; shown is an unselected part. 497 of all reagents (2.4%) count as active. 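Higher z means weaker E2 silencing; only reporter increases were scored, and knock-downs that hurt cell survival may mask genuine repressor factors.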 The numbers tell different reagents against one gene apart.

gene knocked down	reagent no.	mean z-score	z-score, replicate A	z-score, replicate B	z-score, replicate C	activity call
NUB1	1	-0.66	-0.67	-0.75	-0.56	inactive
LOC389602	1	0.24	0.59	0.01	0.14	inactive
LOC389602	2	0.12	0.11	0.08	0.18	inactive
LINC01553	1	0.8	2.57	-0.15	-0.03	inactive
LOC151363 (retired record)	1	1.2	1.43	1.16	1.02	inactive
THPO	1	0.91	0.76	0.96	1.01	inactive
RPL31P51	1	0.3	0.32	0.92	-0.35	inactive
MRPL2	1	1.31	1.42	1.18	1.32	inactive
IRS2	1	-0.8	-0.8	-0.8	-0.81	inactive
RAB3IP	1	0.78	0.85	0.57	0.91	inactive
SLC35D3	1	-0.89	-0.53	-1.11	-1.04	inactive
LOC390564 (retired record)	1	0.35	0.3	0.28	0.48	inactive
GIMAP6	1	1.89	1.74	2.38	1.55	inactive
PRAMEF8	1	-0.24	-0.01	-0.06	-0.65	inactive
ZNF267	1	-1.63	-1.74	-1.58	-1.58	inactive
SH3YL1	1	-1.35	-1.22	-1.37	-1.47	inactive
CHST2	1	0.07	0.06	-0.04	0.2	inactive
FADS3	1	-0.72	-0.64	-0.8	-0.72	inactive
APBB2	1	-0.47	-0.23	-0.7	-0.48	inactive
TUBA4A	1	-0.75	-0.85	-0.65	-0.75	inactive
ZNF43	1	0.92	1.42	0.1	1.22	inactive
PAK5	1	-1.19	-1.09	-1.36	-1.13	inactive
LOC390342 (retired record)	1	0.73	0.7	0.38	1.11	inactive
COL24A1	1	-1.71	-1.36	-1.9	-1.88	inactive
CD276	1	1.19	1.36	1.44	0.77	inactive

Quoted from the entries so far for reference:
gene knocked down	reagent no.	mean z-score	z-score, replicate A	z-score, replicate B	z-score, replicate C	activity call
ZNF267	1	-1.63	-1.74	-1.58	-1.58	inactive
SH3YL1	1	-1.35	-1.22	-1.37	-1.47	inactive
CHST2	1	0.07	0.06	-0.04	0.2	inactive
FADS3	1	-0.72	-0.64	-0.8	-0.72	inactive
APBB2	1	-0.47	-0.23	-0.7	-0.48	inactive
TUBA4A	1	-0.75	-0.85	-0.65	-0.75	inactive
ZNF43	1	0.92	1.42	0.1	1.22	inactive
PAK5	1	-1.19	-1.09	-1.36	-1.13	inactive
LOC390342 (retired record)	1	0.73	0.7	0.38	1.11	inactive

The list goes on:
gene knocked down	reagent no.	mean z-score	z-score, replicate A	z-score, replicate B	z-score, replicate C	activity call
EVL	1	-1.12	-0.84	-1.24	-1.29	inactive
TBX19	1	0.39	0.09	0.34	0.75	inactive
KIAA0825	1	-0.35	-0.22	-0.19	-0.63	inactive
KIAA0825	2	0.19	0.23	0.37	-0.03	inactive
KIAA0825	3	0.91	1.26	0.73	0.73	inactive
CTNND2	1	0.23	0.36	-0.05	0.39	inactive
THOC7	1	-0.48	-0.4	-0.54	-0.51	inactive
LRCH3	1	-0.79	-0.59	-0.72	-1.07	inactive
DLG1	1	2.22	2.56	2.66	1.44	active
CD244	1	2.22	2.11	2.29	2.27	active
NOS2	1	-0.02	-0.21	-0.08	0.23	inactive
BCAP31	1	-0.56	-0.45	-0.69	-0.52	inactive
VILL	1	-0.03	0.05	-0.08	-0.05	inactive
MOB3B	1	0.09	-0.17	0.45	-0.01	inactive
MTHFD2	1	-0.75	-0.77	-0.59	-0.89	inactive
TREH	1	-1.09	-1	-1.09	-1.18	inactive
LRRFIP2	1	1.3	1.37	1.31	1.22	inactive
C18orf54	1	-0.49	-0.65	-0.07	-0.76	inactive
F11	1	-0.68	-0.86	-0.91	-0.27	inactive
LOC402574 (retired record)	1	0.91	1.38	0.52	0.82	inactive
OARD1	1	0.08	-0.14	0.14	0.24	inactive
NXF3	1	-1.68	-1.93	-1.7	-1.41	inactive
MS4A5	1	-1.19	-1.37	-1.24	-0.97	inactive
LOC401616 (retired record)	1	0.21	0.54	0.25	-0.15	inactive
LOC389050 (retired record)	1	1	0.81	1.14	1.04	inactive
PIP5KL1	1	-0.86	-0.42	-1.01	-1.14	inactive
KRTAP4-11	1	0.32	0.08	0.48	0.41	inactive
WDR17	1	0.02	0.3	0.09	-0.32	inactive
DPAGT1	1	-0.24	-0.15	-0.51	-0.08	inactive
RRP1B	1	-0.86	-0.98	-1.01	-0.58	inactive
PTPN2	1	0.17	0	0.22	0.28	inactive
SPAM1	1	0.42	0.28	0.35	0.64	inactive
